Results of unrelated studies side by side (data: NIAID ChemDB).

Common to all: growth or infection tests; agent: Hepatitis B virus; endpoint: EC50

ECn is the concentration giving n% inhibition of infection, replication or growth.

compound	changes	method	cell line	value
CC(C)Cc1cnn2c3c(c(=O)n(-c4ccc(-c5n[nH]c(=O)n5C)cc4)c12)C[C@@H](C)N(C(=O)c1ccc(Br)c(C(F)(F)F)c1)C3		luminescence	HepG2.117	≤0.05 µM
Cc1cc(NC(=O)c2c(F)c(S(=O)(=O)N[C@@H]3CCCN(S(=O)(=O)C4CC4)C3)cn2C)ccc1F		PCR	HepAD38 cells	<0.1 µM
C[C@H](NC(=O)c1c2n(c(=O)n1-c1ccc(OCC(F)(F)F)cc1)CCN(C(=O)c1ccc(Br)c(Cl)c1)C2)c1ccc(OCC(N)=O)cc1F		PCR	HepG2.117	0.1–0.5 µM
C[C@@H](NC(=O)C(=O)N1C[C@H]2COc3c(c(Cl)n(C)c3C(=O)Nc3ccc(F)c(F)c3)S(=O)(=O)N[C@H]2C1)C(F)(F)F		PCR	HepAD38	<0.5 µM
C/C=C(/C)C(=O)Oc1c(OC)c(OC)cc2c1-c1c(cc3c(c1OC)OCO3)C[C@H](C)[C@@](C)(O)C2		ELISA / antigen	HepG2.2.15	31.96 µg/mL
Cc1cc(NC(=O)c2c3c(cn2C)S(=O)(=O)N[C@H]2CN(C(=O)C(=O)NC4(C)COC4)C[C@H]2CS3)ccc1F		PCR	HepAD38	<0.5 µM
C[C@H]1Cc2c(n3ncc(CC4CC4)c3n(-c3ccc(-c4n[nH]nc4N)cc3)c2=O)CN1C(=O)c1ccc(Br)c(C(F)(F)F)c1		luminescence	HepG2.117	0.05–0.5 µM
O=C(c1cc(F)cc(Cl)c1)N1CCS(=O)(=O)[C@H](c2cccs2)C1		PCR	HepG2.117	0.5–5 µM
Cc1cc(NC(=O)c2c3c(cn2C)S(=O)(=O)N[C@H]2CN(C(=O)C(=O)NC(C)(C)C(F)(F)F)C[C@H]2CO3)ccc1F		PCR	HepAD38	<0.5 µM
Cc1cccc(COC(=O)Nc2ccc3nn(C)c(C(=O)Nc4ccc(F)c(Cl)c4)c3c2)c1		PCR	HepAD38	>1000 µM
O=C1NNC(=O)c2c(ncn2[C@@H]2O[C@H](CO)[C@@H](O)[C@H]2O)N1		antigen	2.2.15	<30 µM
CNC(=O)c1ccc(-n2c(=O)c3c(n4ncc(CC5CC5)c24)CN(C(=O)c2ccc(Br)c(C(F)(F)F)c2)[C@H](C)C3)cc1		luminescence	HepG2.117	≤0.05 µM
O=C(NCc1ccccc1)c1c2n(c(=O)n1-c1ccc(OC3CC(F)(F)C3)cc1)CCN(C(=O)c1ccc(Br)c(Cl)c1)C2		PCR	HepG2.117	0.5–5 µM
CC(C)NC(=O)C1CN(C(=O)c2ccc(Br)c(Cl)c2)CCS1(=O)=O		PCR	HepG2.117	0.5–5 µM
CNC(=O)c1ccc(-n2c(=O)c3c(n4ncc(CC5CC5)c24)CN(C(=O)c2ccc(Br)c(Cl)c2)[C@@H](C)C3)cc1		luminescence	HepG2.117	≤0.05 µM
COc1cc2c(c(OC)c1OC)-c1c(cc3c(c1OC)OCO3)C[C@H](C)[C@H](C)[C@@H]2OC		PCR	HepG2.2.15	5.49 µg/mL
CN(C)c1ccnc(-n2cc(S(=O)(=O)Nc3ccc4c(C(=O)Nc5ccc(F)c(Cl)c5)n(C)nc4c3)cn2)n1		PCR	HepAD38	<100 µM
O=C(O)c1cc2c(n(C3CC3)c1=O)-c1cc(Cl)c(OCC3CCC3)cc1S(=O)(=O)C2		antigen / visual reading / absorbance	Primary human hepatocytes	>0.5 µM
Cn1cnnc1-c1ccc(-n2c(=O)c3c(n4ncc(Cc5ccccc5)c24)CN(C(=O)c2ccc(Br)c(C(F)(F)F)c2)CC3)cc1		luminescence	HepG2.117	≤0.05 µM
CCNC(=O)C(=O)N1CCC(NS(=O)(=O)c2cn(C)c(C(=O)Nc3cccc(C(F)(F)F)c3)c2F)CC1		PCR	HepAD38 cells	<0.1 µM
CNC(=O)c1ccc(-n2c(=O)c3c(n4ncc(CC5CC5)c24)CN(C(=O)c2ccc(Br)c(C(F)(F)F)c2)[C@@H](C)C3)nc1		luminescence	HepG2.117	≤0.05 µM
Cn1ccnc1S(=O)(=O)Nc1ccc2c(C(=O)Nc3ccc(F)c(Cl)c3)n(C)nc2c1		PCR	HepAD38	>1000 µM
COCCCOc1cc2c(cc1Cl)-c1c(cc(C(=O)O)c(=O)n1C1CC1)[C@@H](C)S2(=O)=O		antigen / visual reading / absorbance	Primary human hepatocytes	0.05–0.1 µM
CCNC(=O)C(=O)N1CCC(NS(=O)(=O)c2cn(C)c(C(=O)Nc3cc(F)c(F)c(F)c3)c2Cl)CC1C		PCR	HepAD38 cells	<0.1 µM
Cn1nc2cc(NS(=O)(=O)c3cnn(-c4ccc(F)nc4)c3)ccc2c1C(=O)Nc1ccc(F)c(Cl)c1		PCR	HepAD38	100–1000 µM
CCNC(=O)C(=O)N1CCC(NS(=O)(=O)c2cn(C)c(C(=O)Nc3cc(F)c(F)c(F)c3)c2F)CC1		PCR	HepAD38 cells	<0.1 µM
C[C@@H](NC(=O)C(=O)N1C[C@H]2COc3c(cn(C)c3C(=O)Nc3ccc(F)c(Cl)c3)S(=O)(=O)N[C@H]2C1)C(F)(F)F		PCR	HepAD38	<0.5 µM
CC(C)Oc1ccc(-n2c(C(=O)NCc3ccccc3)c3n(c2=O)CCN(C(=O)c2ccc(Br)nc2)C3)cc1		PCR	HepG2.117	>5 µM
Cc1cc(NC(=O)c2c3c(cn2C)S(=O)(=O)N[C@H]2CN(C(=O)C(=O)NC4CC(F)(F)C4)C[C@H]2CO3)ccc1F		PCR	HepAD38	<0.5 µM
Cn1nc2cc(NS(=O)(=O)c3cnn(C4CCN(C(=O)OC(C)(C)C)C4)c3)ccc2c1C(=O)Nc1ccc(F)c(Cl)c1		PCR	HepAD38	100–1000 µM
Cc1cc(NC(=O)c2c3c(cn2C)S(=O)(=O)N[C@H]2CN(C(=O)C(=O)N[C@H](C)C(F)(F)F)C[C@H]2CO3)ccc1F	V124G	PCR	HepG2	0.0068 µM
CC1c2cc(C(=O)O)c(=O)n(C3CC3)c2-c2cc(Cl)c(OC3CCOCC3)cc2S1(=O)=O		antigen / visual reading / absorbance	Primary human hepatocytes	>0.5 µM
CC(C)Cc1cnn2c3c(c(=O)n(-c4ccc(-c5nncn5C)cc4)c12)C[C@H](C)N(C(=O)c1ccc(Br)c(C(F)(F)F)c1)C3		luminescence	HepG2.117	0.05–0.5 µM
O=C(O)c1cc2c(n(C3CC3)c1=O)-c1cc(Cl)c(O)cc1S(=O)(=O)C2		antigen / visual reading / absorbance	Primary human hepatocytes	>0.5 µM
O=C(c1ccc(Cl)c(F)c1)N1CCS(=O)(=O)[C@H](c2cccs2)C1		PCR	HepG2.117	0.5–5 µM
O=C(NCc1ccccc1-n1cc(F)cn1)c1c2n(c(=O)n1-c1ccc(OCC(F)(F)F)cc1)CCN(C(=O)c1ccc(Br)c(Cl)c1)C2		PCR	HepG2.117	<0.1 µM
COCCCOc1cc2c(cc1F)-c1c(cc(C(=O)O)c(=O)n1C1CC1)C(C(C)(C)C)S2(=O)=O		antigen / visual reading / absorbance	Primary human hepatocytes	>0.5 µM
Cn1nc2cc(S(=O)(=O)NC3CC3)ccc2c1C(=O)Nc1ccc(F)c(Cl)c1		PCR	HepAD38	<100 µM
CNC(=O)c1ccc(-n2c(=O)c3c(n4ncc(CC(C)C)c24)CN(C(=O)c2ccc(Br)c(C(F)(F)F)c2)[C@@H](C)C3)cc1		luminescence	HepG2.117	0.05–0.5 µM
CCOCCOc1cc2c(cc1Cl)-c1c(cc(C(=O)O)c(=O)n1C1CC1)C(C)S2(=O)=O		antigen / visual reading / absorbance	Primary human hepatocytes	0.1–0.5 µM
COc1ccc(CNC(=O)c2c3n(c(=O)n2-c2ccccc2)CCN(C(=O)c2ccc(Br)c(Cl)c2)C3)cc1OC		PCR	HepG2.117	0.1–0.5 µM
Cc1cc(NC(=O)c2c3c(cn2C)S(=O)(=O)NC2CN(C(=O)C(=O)NC4(C)COC4)CC2CO3)ccc1F		PCR	HepAD38	<0.5 µM
COCCCOc1cc2c(cc1Cl)-c1c(cc(C(=O)O)c(=O)n1C1CCCC1)CS2		antigen / visual reading / absorbance	Primary human hepatocytes	>0.5 µM
Cc1cnn(-c2ccc(-n3c(=O)c4c(n5ncc(CC(C)C)c35)CN(C(=O)c3ccc(Br)c(C(F)(F)F)c3)[C@H](C)C4)cc2)c1		luminescence	HepG2.117	≤0.05 µM
COc1ccc(-n2cc(S(=O)(=O)Nc3ccc4c(C(=O)Nc5ccc(F)c(Cl)c5)n(C)nc4c3)cn2)nc1		PCR	HepAD38	<100 µM
C[C@H](Cn1cnc2c(N)ncnc21)OCP(=O)(O)O		PCR	HepG2.2.15	0.53 µg/mL
Cn1ncc(NS(=O)(=O)c2ccc3c(C(=O)Nc4ccc(F)c(Cl)c4)n(C)nc3c2)c1F		PCR	HepAD38	100–1000 µM
COCCCOc1cc2c(cc1NC(=O)OC(C)(C)C)-c1c(cc(C(=O)O)c(=O)n1C1CC1)CS2(=O)=O		antigen / visual reading / absorbance	Primary human hepatocytes	>0.5 µM
N#Cc1cc(C(=O)N2CCn3c(c(C(=O)NCc4ccccc4-c4cccnn4)n(-c4ccc(OC5CC5)cc4)c3=O)C2)ccc1Br		PCR	HepG2.117	0.1–0.5 µM
N#Cc1cc(C(=O)N2CCS(=O)(=O)[C@@](F)(c3ncc(Cc4ccccc4-c4ncccn4)s3)C2)ccc1Br		PCR	HepG2.117	<0.1 µM
COc1ccc(CNC(=O)c2c3n(c(=O)n2-c2ccc(OCC(F)(F)F)cc2)CCN(C(=O)c2ccc(Br)c(Cl)c2)C3)c(F)c1		PCR	HepG2.117	0.1–0.5 µM
COCCCOc1cc2c(cc1Cl)-c1c(cc(C(=O)O)c(=O)n1C1CCC1)CS2		antigen / visual reading / absorbance	Primary human hepatocytes	0.05–0.1 µM
COc1ccc(-n2c(C(=O)NCc3ccc(Cl)cc3)c3n(c2=O)CCN(C(=O)c2ccc(Br)c(Cl)c2)C3)cc1		PCR	HepG2.117	0.1–0.5 µM
Cn1nc2cc(NS(=O)(=O)c3cnn(S(C)(=O)=O)c3)ccc2c1C(=O)Nc1ccc(F)c(Cl)c1		PCR	HepAD38	100–1000 µM

For reference, 7 entries again:

compound	changes	method	cell line	value
CNC(=O)c1ccc(-n2c(=O)c3c(n4ncc(CC5CC5)c24)CN(C(=O)c2ccc(Br)c(C(F)(F)F)c2)[C@@H](C)C3)nc1		luminescence	HepG2.117	≤0.05 µM
CCNC(=O)C(=O)N1CCC(NS(=O)(=O)c2cn(C)c(C(=O)Nc3cc(F)c(F)c(F)c3)c2F)CC1		PCR	HepAD38 cells	<0.1 µM
O=C(c1ccc(Cl)c(F)c1)N1CCS(=O)(=O)[C@H](c2cccs2)C1		PCR	HepG2.117	0.5–5 µM
COc1cc2c(c(OC)c1OC)-c1c(cc3c(c1OC)OCO3)C[C@H](C)[C@H](C)[C@@H]2OC		PCR	HepG2.2.15	5.49 µg/mL
C[C@H](NC(=O)c1c2n(c(=O)n1-c1ccc(OCC(F)(F)F)cc1)CCN(C(=O)c1ccc(Br)c(Cl)c1)C2)c1ccc(OCC(N)=O)cc1F		PCR	HepG2.117	0.1–0.5 µM
CCNC(=O)C(=O)N1CCC(NS(=O)(=O)c2cn(C)c(C(=O)Nc3cccc(C(F)(F)F)c3)c2F)CC1		PCR	HepAD38 cells	<0.1 µM
COc1ccc(CNC(=O)c2c3n(c(=O)n2-c2ccccc2)CCN(C(=O)c2ccc(Br)c(Cl)c2)C3)cc1OC		PCR	HepG2.117	0.1–0.5 µM

Two numbers with a dash give a range or band. Rows are shuffled and stem from different studies. Blank or dashed fields: not listed here.